Measured values: patent US20260234738A1 (Regeneron, published 2026)

B1: mAb11004 (antibody, V domains shown)
VH: QVQLVESGGGVVQPGRSLRLSCVASGFTFSIYGMDWVRQAPGKGLEWVAVISYDGSNKYYADSVKGRFTISRDNSKNTLYLQMNSLRPEDTAVYYCAKDREAAADAFDIWGQGTMVTVSS
VL: DIQMTQSPSSVSASVGDRVTITCRASQGISSWLAWYQQKPGKAPKLLIYAASSLHSGVPSRFSGSGSGTDFTLTISSLQPEDFATYYCQQANSFRLTFGGGTKVEIKR
B2: mAb11006 (antibody, V domains shown)
VH: EVQLVESGGGLVQPGGSLRLSCAASGFIVSRNYMSWVRQAPGKGLEWVSVIYSGGSTFYADSVKGRFTISRHNSKNTLYLQMNSLKAEDTAVYYCARELRGYFDYWGQGTLVTVSS
VL: DIQLTQSPSFLSASVGDRVTITCWASQGISSYLAWYQQKPGKAPKLLIYAASTLQSGVPSRFSGSGSGTEFTLTISSLQPEDFATYYCQLLNSYPYTFGQGTKLEIKR
B3: mAb11008 (antibody, V domains shown)
VH: EVQLVESGGGLVQPGGSLRLSCAASGFTVSSNYMTWVRQAPGKGLEWVSVIYSGGSTFYADSVKGRFTISRHNSENTLYLQMNSLRAEDTAVYYCARDLAAAGTDYWGQGALVTVSS
VL: B2 VL with E81D, L90H, P95L
B4: mAb10998 (antibody, V domains shown)
VH: EVQLVESGGGLVHPGGSLRLSCAASGLTVSSNYMSWVRQAPGKGLEWVSVIYSGGSTYYADSVKGRFTISRHNSKNTLFLQMNSLRAEDTAVYYCARDRPITGTTLDVWGQGTTVTVSS
VL: DIQMTQSPSSLFASVGDRVTITCRASQSISSYLNWYQQKPGKAPKLLIYAASSLQSGVPSRFSGSGSGTDFTLTISSLQPEDFAFYYCQQTYSTPPITFGQGTRLEIKR
B5: mAb10930 (antibody, V domains shown)
VH: EVQLVESGGGLVQPGRSLRLSCAASGFTFDDYAMYWVRQAPGKGLEWVSGISWNSGSIGYADSVKGRFTISRDNAKNSLYLQMNSLRAADTALYYCAKDKDWNSRGYYYYGMDVWGQGTTVTVSS
VL: not shown
B6: mAb10935 (antibody, V domains shown)
VH: EVQLVESGGGLVQPGGSLRLSCAASGFTVSSNYMSWVRQAPGKGLEWVSLIYSGGSTYYADSVKGRFTISRHNSKNTLYLQMNSLRSEDTAVYYCARVPLGDYYYGMDVWGQGTTVTVSS
VL: DIQMTQSPSSLSASVGDRVTITCQASQDINKYLNWYQQKPGKAPKLLIYDASNLETGVPSRFSGSGSGTDFTFTISSLQPEDIATYYCQQSDNLPLTFGGGTKVEIKR
B7: mAb11006 (antibody, V domains shown)
VH: B2 VH
VL: B2 VL
B8: mAb10985 (antibody, V domains shown)
VH: EVQLVESGGGLVQPGRSLRLSCAASGFTFDDYAMHWVRQAPGKGLEWVSGISWNRGSIGYADSVKGRFTISRDNAKNSLYLQMSSLRAEDTALYYCAKDGERWDSVVVPSARNGMDVWGQGTTVTVSS
VL: QSVLTQPPSVSGAPGQRVTISCTGSSSNIGAGYDVHWYQQLPGTAPKLLIYGNSNRPSGVPDRFSGSKSGTSASLAITGLQAEDEADYYCQSYDSSLSGSYVFGTGTKVTVLG
B9: mAb10998 (antibody, V domains shown)
VH: B4 VH
VL: B4 VL

The binders below were run against T1, SARS-CoV-2 Spike Protein (RBD)(R319-F541).mmH (SARS-CoV-2) (assay: Luminex beads, supernatant).

First: B1
Second: B2
The “Binding signal (MFI)” value of the first is lower: 3350 MFI for the first, 5130 MFI for the second.

Going from B3 to B4, the “Binding signal (MFI)” value falls from 4050 MFI to 1850 MFI.

Each binder was assayed against SARS-COV-2 RBD extracellular domain expressed with a C-terminal myc-myc-hexahistidine (SARS-CoV-2) (assay: SPR).

First: B5
Second: B6
The t½ of the first is higher: 36 s for the first, 18 s for the second.

Work on B7 yielded a t½ of 48 s.

Molecular target: T1, SARS-CoV-2 Spike Protein …
Experiment: Luminex beads, supernatant
Remark: another data set of the same source

Going from B1 to B2, the “Binding signal (MFI)” value falls from 11300 MFI to 4740 MFI.

First: B3
Second: B4
The “Binding signal (MFI)” value of the first is lower: 3180 MFI for the first, 3840 MFI for the second.

Each binder was assayed against SARS-COV-2 RBD-MMH (SARS-CoV-2) (assay: SPR).

Going from B8 to B9, the “t½” value falls from 480 s to 30 s.

Where a chain is given by its changes, count along the chain named.
